The text below walks through data of PMC6445327, “Inhibition of the α-carbonic anhydrase from Vibrio cholerae with amides and sulfonamides incorporating imidazole moieties” (Journal of Enzyme Inhibition and Medicinal Chemistry, 2017).

The assay deals with two V. cholerae O1 strains (ATCC14103 and ISS-Vc014). Briefly: In vitro antibacterial assay (broth dilution), strain not distinguished. It counts as cell-based, Vibrio cholerae. The settings on record: tested 0.1 μg ml^−1 to 1 mg ml^−1; effect at 1 mg ml^−1. A general note: Dilution methods test growth across graded concentrations, often in twofold steps.

The structures appear in SMILES notation.

`O=S(=O)(NCCCn1ccnc1)c1ccc(F)cc1` [Compound 2, N-(3-(1H-imidazol-1-yl)propyl)-4-fluorobenzenesulfonamide]: the “inhibition of the bacterial growth” value is “partial inhibition”.

On to `O=C(NCCCn1ccnc1)c1ccc(C(F)(F)F)cc1` [Compound 7, N-(3-(1H-imidazol-1-yl)propyl)-4-(trifluoromethyl)benzamide], for which the “inhibition of the bacterial growth” value was “partial inhibition”.

In the case of `O=C(NCCCn1ccnc1)c1ccc([N+](=O)[O-])cc1` [Compound 8, N-(3-(1H-imidazol-1-yl)propyl)-4-nitrobenzamide], the “inhibition of the bacterial growth” value is reported as “partial inhibition”.
